29 compounds from PubChem BioAssay AID488895 (Broad Institute, 2010) can be followed below.

Each structure is given as a SMILES string. The entries are a selection whose mix differs from that of the whole data set. Active and inactive are the calls of the source.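 How the source made its calls: active means mean replicate inhibition at least 50% and at least half of replicates individually reaching 50%; inconclusive means only one of the two criteria met; inactive means neither criterion met.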

The assay is described as follows: E. coli Tat export inhibitors, primary screen, MC4100, TorA-mCherry reporter, fluorescence, single point (AID 488895).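 Further: exported cargo escapes ClpAP degradation while cytoplasmic cargo is degraded and loses fluorescence; 0% = median of neutral control wells and 100% = median of NaSCN control wells.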 Particulars: at 10 µM, active compounds read high.
For the compound `O=C(NCC1(N2CCCCC2)CCCCC1)c1ccc(Cl)nc1`, the inhibition was inactive: -1.01%.

With `Cc1cc(C)cc(N(C(=O)c2ccccc2)C2CCN(C(=O)OC(C)(C)C)CC2)c1`, the inhibition was inactive: 8.12%.

On to `O=C(NCC1(N2CCOCC2)CCCCC1)c1cc2ccccc2o1`, for which the inhibition was inactive: 3.67%.

As for `O=C(NCC1(N2CCCCC2)CCCCC1)c1ccc(Cl)s1`, the inhibition was inactive: -2.28%.

Regarding `N#CC1(Nc2ccccc2)CCN(Cc2ccccc2)CC1`, the inhibition was inactive: 0.131%.

As to `O=C(OC1CN2CCC1CC2)C1c2ccccc2Oc2ccccc21` (centres undefined), the inhibition was inactive: -10%.

As for `COc1ccc(Cl)cc1C(=O)NCC1(N2CCOCC2)CCCCC1`, the inhibition is inactive: -0.78%.

Regarding `CCOC(=O)N1CCC(Nc2ccc(OC)cc2)CC1`, the inhibition was inactive: 8.38%.

In the case of `COc1ccc(C(=O)NCC2(N3CCCCC3)CCCCC2)cc1`, the inhibition was inactive: -5.4%.

Take `COc1ccc(C(=O)NCC2(N3CCCCC3)CCCCC2)c(OC)c1OC`: the inhibition was inactive: -7.03%.

As for `CC(C)(C)OC(=O)N1CCC(N(C(=O)c2ccccc2)c2ccc(F)cc2)CC1`, the inhibition was inactive: -2.41%.

In the case of `O=C(NCC1(N2CCCCC2)CCCCC1)c1ccc(=O)[nH]c1`, the inhibition was inactive: 0.161%.

As to `O=C(NCC1(N2CCCCC2)CCCCC1)c1cccs1`, the inhibition was inactive: -3.22%.

For the compound `CSc1ccccc1C(=O)NCC1(N2CCCCC2)CCCCC1`, the inhibition was inactive: -2.95%.

For the compound `Cc1cccc(NC2(C#N)CCN(Cc3ccccc3)CC2)c1`, the inhibition was inactive: 2.4%.

In the case of `CCOC(=O)N1CCC(Nc2cccc(C)c2)CC1`, the inhibition was inactive: -8.35%.

For the compound `COc1cc(C(=O)NCC2(N(C)C)CCCCC2)ccc1OC(F)F`, the inhibition is inactive: -3.79%.

Turning to `O=C1CCN(Cc2ccccc2)CC1`, the inhibition is inactive: 3.87%.

With `CCOc1ccc(C)cc1CN(CCCl)CCCl`, the inhibition was inactive: 10.8%.

As for `O=P1(N(CCCl)CCCl)SCCCS1`, the inhibition is inactive: 5.32%.

As to `CCCCOc1ccc(C(=O)NCC2(N3CCOCC3)CCCCC2)cc1`, the inhibition was inactive: 10.5%.

For the compound `COc1ccc(NC2CCN(CCc3ccccc3)CC2)c(OC)c1`, the inhibition was inactive: -13.1%.

`CCOC(=O)N1CCC(Nc2ccc(F)cc2)CC1`: the inhibition was inactive: -7.36%.

For `O=C(NCC1(N2CCCCC2)CCCCC1)c1cccc(C(F)(F)F)c1`, the inhibition is inactive: 1.95%.

With `COc1cc(C(=O)NCC2(N3CCCCC3)CCCCC2)ccc1OC(F)F`, the inhibition is inactive: 6.65%.

As to `O=C(NCC1(N2CCOCC2)CCCCC1)c1cc(=O)[nH]c2ccccc12`, the inhibition was inactive: 1.98%.

On to `CN1CCN(CCOC(=O)C(O)(c2ccccc2)c2ccccc2)CC1`, for which the inhibition was inactive: -3.95%.

Consider `COc1ccc(NC2CCN(C(=O)OC(C)(C)C)CC2)cc1`, for which the inhibition was inactive: -1.53%.

For `CC(C)c1ccc(C(=O)NCC2(N3CCOCC3)CCCCC2)cc1`, the inhibition was inactive: 2.02%.

What is called inhibition is the drop in the measured response relative to a control, in per cent.
